Data published in the supplement of paper PMC3578754.

Experiments:
Assay in all cases: fold change of IC50 against reference virus; higher = more resistant; Cell-culture drug susceptibility tests of virus bearing the protease of each isolate, gathered from many studies.
indinavir = compound: CC(C)(C)NC(=O)[C@@H]1CN(Cc2cccnc2)CCN1C[C@@H](O)C[C@@H](Cc1ccccc1)C(=O)N[C@H]1c2ccccc2C[C@H]1O [indinavir]
saquinavir = compound: CC(C)(C)NC(=O)[C@@H]1C[C@@H]2CCCC[C@@H]2CN1C[C@@H](O)[C@H](Cc1ccccc1)NC(=O)[C@H](CC(N)=O)NC(=O)c1ccc2ccccc2n1 [saquinavir]
ritonavir = compound: CC(C)c1nc(CN(C)C(=O)N[C@H](C(=O)N[C@@H](Cc2ccccc2)C[C@H](O)[C@H](Cc2ccccc2)NC(=O)OCc2cncs2)C(C)C)cs1 [ritonavir]
atazanavir = compound: COC(=O)N[C@H](C(=O)N[C@@H](Cc1ccccc1)[C@@H](O)CN(Cc1ccc(-c2ccccn2)cc1)NC(=O)[C@@H](NC(=O)OC)C(C)(C)C)C(C)(C)C [atazanavir]
nelfinavir = compound: Cc1c(O)cccc1C(=O)N[C@@H](CSc1ccccc1)[C@H](O)CN1C[C@H]2CCCC[C@H]2C[C@H]1C(=O)NC(C)(C)C [nelfinavir]

Test System	fold change of IC50 against reference virus (indinavir)	fold change of IC50 against reference virus (saquinavir)	fold change of IC50 against reference virus (ritonavir)	fold change of IC50 against reference virus (atazanavir)	fold change of IC50 against reference virus (nelfinavir)
HIV-1 isolate 631 (protease changes: none, study 43)	1	1	1	1	1
HIV-1 isolate 1451 (protease changes: I13V K14R K20I E35D R41K H69K V82I I84C L89M, study 115)	1.3	18	9.9	3.4	59
HIV-1 isolate 603 (protease changes: E35D M36I R41K I50L R57K I62V L63P I93L, study 115)	0.4	0.3	0.2	8.8	0.9
HIV-1 isolate 1236 (protease changes: L10I I13V R41K, study 115)	1	–	1	1	1
HIV-1 isolate 1430 (protease changes: V32I L33F M46I A71V I84V N88S, study 43)	36	2	54	183	21
HIV-1 isolate 1016 (protease changes: V32I M46I A71V N88S, study 43)	4	2	3	12	12
HIV-1 isolate 102 (protease changes: K14R I15V D30N L33F R41K D60E Q61N L63T N88D, study 115)	0.4	0.6	0.7	0.7	12
HIV-1 isolate 455 (protease changes: V32I M46I V82F I84V, study 43)	24	1	72	9	8
HIV-1 isolate 123 (protease changes: A71V, study 115)	1.2	–	2	0.9	1.4
HIV-1 isolate 457 (protease changes: L10F T12S L19Q K20R D30N L63P V77I N88D L89I, study 115)	1.9	2	1.1	2.3	46
HIV-1 isolate 21 (protease changes: V32I M46I R57G I84V L89M, study 43)	9	2	71	96	8
HIV-1 isolate 316 (protease changes: L10F I13V I15R D30N L33I E35D M36I R41K L63P I64V N88D, study 115)	1.4	1.1	1.1	1.5	45
HIV-1 isolate 1280 (protease changes: I13V M46I D60E L63P I64V V77I L90M I93L, study 115)	4.6	2.1	8.2	2.1	23
HIV-1 isolate 279 (protease changes: L10I I62V L63P G73T L90M I93L, study 24)	17	11	11	12	17
HIV-1 isolate 342 (protease changes: K45L L63P I64L I72V V77I I93L, study 115)	0.6	0.4	0.5	0.6	1
HIV-1 isolate 627 (protease changes: V32I M46I R57G I84V, study 43)	2	1	24	6	2
HIV-1 isolate 1317 (protease changes: R57G, study 115)	1	–	1	1	1
HIV-1 isolate 1286 (protease changes: I13V K20R D30N E35D M36I I54V I62V L63P A71V N88D L90M, study 24)	17	118	54	41	479
HIV-1 isolate 92 (protease changes: L19I R41K I50L A71V T74S, study 115)	0.4	0.5	0.2	7.9	0.8
HIV-1 isolate 147 (protease changes: R8Q L10F T12A I13V D30N E35D M36I M46V I62V L63P I64L A71T V77I N88D, study 115)	1.2	–	0.9	1.5	31
HIV-1 isolate 1617 (protease changes: T12S I13V K14T L19V D30N L33V M36I K45Q I64V, study 115)	0.4	0.3	0.3	0.8	13
HIV-1 isolate 1459 (protease changes: D30N M46I, study 43)	3	1	1	3	35
HIV-1 isolate 1530 (protease changes: I13V K14R K20I E35D M36I R41K M46I H69K V82I L89M L90M, study 115)	2.6	3.5	13	3.8	15
HIV-1 isolate 647 (protease changes: L10I I13V K20R E35D M36I I54V L63P I64V V82A L90M, study 24)	8	4	93	5	18

Fold change is the IC50 on the isolate divided by the IC50 on a reference virus; 1 = unchanged, higher = more resistant. Changes are given against the subtype B consensus. No active / inactive call. The values were gathered from many studies (numbered anew) with different assays, which the source does not name. Most viruses are clinical isolates; some are laboratory strains or clones with known resistance changes. Isolates with mixed residues are left out; stretches that were not sequenced show no change. Round top values that many isolates share are read here as limits; other very high values and 0.1 may be limits too. The protease changes I3V and N37S, insertions and deletions cannot be read from the source.
